Data source: PubChem BioAssay AID1259414 (Drosophila RNAi Screening Center, 2018)
The deposit covers about 24,000 reagents; shown is an unselected part of those with a known target gene and a result. Over the whole deposit, about 1,210 (5%) were called active. 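Inactive calls also include excluded dsRNAs with several or no targets, genes unexpressed in JW18, and well A1, regardless of score.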 A plus sign joins genes that one reagent is predicted to hit.

Purpose: 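Fly genes that alter Wolbachia amount inside host cells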 (primary screen)
Cell system: Drosophila JW18 cells infected with Wolbachia
Reagents: long dsRNA against Drosophila genes, 0.25 µg dsRNA per well of a 384-well plate
Timing: 5 days
Challenge: cells persistently infected with Wolbachia before knock-down; no added drug
Measurement: 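Imaged fluorescence in situ signal for Wolbachia 23S rRNA per DAPI-counted host cell, given as a robust z-score within each plate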
Reading the numbers: Wolbachia per cell robust z: higher = more Wolbachia per host cell than the plate typical
Rule for the call: 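Active if absolute robust z reaches 1.5 in two or more of three replicates, leaving out multi- or no-target dsRNAs, genes unexpressed in JW18 and A1 wells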

| predicted target | DRSC id | Wolbachia per cell robust z, rep 1 | Wolbachia per cell robust z, rep 2 | Wolbachia per cell robust z, rep 3 | call |
| --- | --- | --- | --- | --- | --- |
| CG43366 | DRSC04857 | -0.154 | -4.71 | 0.0648 | inactive |
| CG43366 | DRSC04864 | -3.29 | 0.293 | -0.0289 | inactive |
| CG43366 | DRSC25725 | 0.304 | 0.402 | -0.261 | inactive |
| CG43366 | DRSC27579 | 0.581 | 0.369 | 1.08 | inactive |
| dhd | DRSC18761 | -0.405 | -0.779 | -0.0823 | inactive |
| dhd | DRSC29590 | 0.612 | -1.47 | 0.59 | inactive |
| CG8834 | DRSC07283 | 0.526 | 0.816 | 0.998 | inactive |
| CG5937 | DRSC18392 | -0.0701 | 0.217 | -1.17 | inactive |
| CG5937 | DRSC26696 | 0.0304 | 0.993 | 0.326 | inactive |
| COX4L | DRSC04841 | 0.057 | 0.327 | 0.809 | inactive |
| CG10477 | DRSC09732 | -0.953 | -0.0387 | 0.681 | inactive |
| CG10477 | DRSC23989 | -0.936 | -0.988 | 0.548 | inactive |
| CG33641 | DRSC37845 | 0.323 | -1.27 | -3.88 | inactive |
| Prx5 + CG7215 | DRSC16214 | 0.672 | -0.456 | 0.689 | inactive |
| Prx5 + CG7215 | DRSC16215 | -1.58 | -0.492 | 0.0232 | inactive |
| BomS6 | DRSC21676 | 0.00728 | 0.962 | -1.13 | inactive |
| BomS6 | DRSC26792 | -0.114 | 0.754 | 0.148 | inactive |
| CG14478 | DRSC06450 | -2.96 | 0.0465 | 0.483 | inactive |
| CG10073 | DRSC05961 | -1.24 | -0.608 | -0.261 | inactive |
| Naa35 | DRSC04447 | 0.574 | 0.363 | 0.776 | inactive |
| Naa35 | DRSC26149 | 0.71 | 0.798 | 0.475 | inactive |
| slmo + CG34179 + IPIP | DRSC38686 | 0.0203 | -2.88 | 0.255 | inactive |
| Obp59a | DRSC04160 | -0.301 | -5.98 | -0.622 | inactive |
| Ugt305A1 | DRSC08541 | -0.892 | -1.85 | -0.482 | inactive |
| Ugt305A1 | DRSC26426 | 0.926 | 0.98 | 0.844 | inactive |

Sorted by “Wolbachia per cell robust z, rep 3” (descending): 8 of the entries above.
| predicted target | DRSC id | Wolbachia per cell robust z, rep 1 | Wolbachia per cell robust z, rep 2 | Wolbachia per cell robust z, rep 3 | call |
| --- | --- | --- | --- | --- | --- |
| Naa35 | DRSC04447 | 0.574 | 0.363 | 0.776 | inactive |
| CG14478 | DRSC06450 | -2.96 | 0.0465 | 0.483 | inactive |
| Naa35 | DRSC26149 | 0.71 | 0.798 | 0.475 | inactive |
| slmo + CG34179 + IPIP | DRSC38686 | 0.0203 | -2.88 | 0.255 | inactive |
| BomS6 | DRSC26792 | -0.114 | 0.754 | 0.148 | inactive |
| Prx5 + CG7215 | DRSC16215 | -1.58 | -0.492 | 0.0232 | inactive |
| CG10073 | DRSC05961 | -1.24 | -0.608 | -0.261 | inactive |
| BomS6 | DRSC21676 | 0.00728 | 0.962 | -1.13 | inactive |

The listing continues:
| predicted target | DRSC id | Wolbachia per cell robust z, rep 1 | Wolbachia per cell robust z, rep 2 | Wolbachia per cell robust z, rep 3 | call |
| --- | --- | --- | --- | --- | --- |
| CG5174 | DRSC06920 | -0.334 | 0.257 | 0.313 | inactive |
| CG5174 | DRSC28048 | 0.677 | -0.814 | 0.162 | inactive |
| CG14708 | DRSC14930 | -0.0946 | -0.183 | 0.365 | inactive |
| CG14708 | DRSC25906 | -0.76 | 0.502 | 0.309 | inactive |
| CG15142 | DRSC02443 | 1.37 | 0.806 | 0.438 | inactive |
| CG15142 | DRSC41521 | -0.221 | 0.422 | -0.519 | inactive |
| tbrd-3 | DRSC04295 | 0.103 | 0.116 | 0.865 | inactive |
| tbrd-3 | DRSC26310 | -1.55 | 0.301 | 0.601 | inactive |
| dap | DRSC07601 | -1.23 | -0.953 | -0.228 | inactive |
| dap | DRSC40812 | 0.611 | -0.276 | -1.3 | inactive |
| CG15432 | DRSC00447 | -2.69 | 0.28 | -3.06 | active |
| CG15432 | DRSC23618 | 0.461 | -0.00514 | 1.42 | inactive |
| CG11414 | DRSC04110 | -1.36 | -0.149 | -1.95 | inactive |
| Smox | DRSC23488 | 0.604 | 1.01 | 0.605 | inactive |
| Slc45-1 | DRSC10427 | 0.744 | 1.35 | 0.683 | inactive |
| CG33281 | DRSC00421 | -7.82 | -0.85 | 0.37 | inactive |
| Gli | DRSC03332 | 0.772 | 0.699 | 1.8 | inactive |
| Strn-Mlck | DRSC05032 | -1.67 | -0.0695 | -0.509 | inactive |
| Strn-Mlck | DRSC06571 | 0.336 | -1.07 | -0.43 | inactive |
| Strn-Mlck | DRSC07471 | 0.438 | -0.897 | -0.669 | inactive |
| chp | DRSC16925 | -0.657 | 0.325 | -7.48 | inactive |
| chp | DRSC26106 | -2.24 | -1.1 | 0.0223 | inactive |
